Laboratory results reported in paper PMC2886105, “Assay Strategies for the Discovery and Validation of Therapeutics Targeting Brugia pahangi Hsp90” (PLoS Neglected Tropical Diseases, 2010).

Tests used:
adult female B. pahangi = test: Mf output by adult female B. pahangi cultured in vitro with drug; settings: GA at 1 µM; PU-H71 and PU-DZ8 at 5 and 10 µM; three-day period
B. pahangi Mf = test: Mortality of purified B. pahangi Mf incubated in drug; settings: day 7
adult B. pahangi = test: Condition and activity of adult B. pahangi worms in vitro
Brugia Hsp90 = Brugia Hsp90 (Brugia pahangi, UniProt O61998); settings: inhibition of cy3B-GA binding to Brugia Hsp90

**Q.** Which results are given for `CC(C)NCCCn1c(Cc2cc3c(cc2I)OCO3)nc2c(N)nc(F)nc21`?
**A.** effect on Mf release (adult female B. pahangi): profound effect; Mf dead (B. pahangi Mf; 5.0 µM): 50%; Mf dead (B. pahangi Mf; 10 µM): 95%; activity of adult worms (adult B. pahangi; 5.0 µM): less of an effect; activity of adult worms (adult B. pahangi; 10 µM): markedly less active; potency fold lower than GA (Brugia Hsp90): 8 fold
